PubChem BioAssay AID1259414 – Drosophila RNAi Screening Center – 2018

Assay: 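Host factors increasing or decreasing Wolbachia levels in cultured fly cells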 (primary screen)
Cell system: Drosophila JW18 cells infected with Wolbachia
Reagent: long dsRNA against Drosophila genes, 0.25 µg dsRNA per well of a 384-well plate
Timing: 5 days
Challenge: cells persistently infected with Wolbachia before knock-down; no added drug
Read-out: 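Automated imaging of bacterial rRNA staining divided by host cell count, reported as plate-normalised robust z-score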
Scale: Wolbachia per cell robust z: higher = more Wolbachia per host cell than the plate typical
Hit rule: 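Hit when robust z is 1.5 or more, or -1.5 or less, in at least two of three replicates; excludes dsRNAs with several or no targets, genes not expressed in JW18 and well A1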
The deposit covers about 24,000 reagents; shown is a random part of those that have a named target and a result. Over the whole deposit, about 1,210 (5%) are marked active. 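Inactive calls also include excluded dsRNAs with several or no targets, genes unexpressed in JW18, and well A1, regardless of score.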 Entries without a mark were called inactive. The numbers tell different reagents against one gene apart. Names joined by + are all predicted targets of the reagent.

Depletion of nht (GeneID 34902) resulted in: Wolbachia per cell robust z, rep 1 = 0.803; Wolbachia per cell robust z, rep 2 = 0.941; Wolbachia per cell robust z, rep 3 = -0.606.
With knock-down of CG15480 (GeneID 34723) #1 the results were Wolbachia per cell robust z, rep 1 = -4.65; Wolbachia per cell robust z, rep 2 = -1.76; Wolbachia per cell robust z, rep 3 = -0.987.
Knock-down of CG15480 (GeneID 34723) #2 gave: Wolbachia per cell robust z, rep 1 = -2.19; Wolbachia per cell robust z, rep 2 = 2.03; Wolbachia per cell robust z, rep 3 = -8.49.
After knock-down of CG2790 (GeneID 37992) #1 the results were Wolbachia per cell robust z, rep 1 = 0.224 (active); Wolbachia per cell robust z, rep 2 = -4; Wolbachia per cell robust z, rep 3 = -5.51.
Knock-down of CG2790 (GeneID 37992) #2 came out at: Wolbachia per cell robust z, rep 1 = 0.49; Wolbachia per cell robust z, rep 2 = -0.0203; Wolbachia per cell robust z, rep 3 = 0.105.
For CG2790 (GeneID 37992) #3 the deposit lists Wolbachia per cell robust z, rep 1 = 1.09; Wolbachia per cell robust z, rep 2 = -1.21; Wolbachia per cell robust z, rep 3 = -0.492.
HmgZ (GeneID 37480) #1 showed Wolbachia per cell robust z, rep 1 = -0.614; Wolbachia per cell robust z, rep 2 = 0.381; Wolbachia per cell robust z, rep 3 = -11.9.
After knock-down of HmgZ (GeneID 37480) #2, the screen gave Wolbachia per cell robust z, rep 1 = 0.558; Wolbachia per cell robust z, rep 2 = -0.473; Wolbachia per cell robust z, rep 3 = -0.922.
CG18088 (GeneID 34219) scored Wolbachia per cell robust z, rep 1 = 1.42; Wolbachia per cell robust z, rep 2 = -0.147; Wolbachia per cell robust z, rep 3 = 1.28.
Knock-down of CG42497 + Tim10 resulted in: Wolbachia per cell robust z, rep 1 = 0.823; Wolbachia per cell robust z, rep 2 = 0.627; Wolbachia per cell robust z, rep 3 = -0.571.
For Cap-D3 (GeneID 33778) #1, the entry reads Wolbachia per cell robust z, rep 1 = -0.913; Wolbachia per cell robust z, rep 2 = -0.226; Wolbachia per cell robust z, rep 3 = 0.259.
Cap-D3 (GeneID 33778) #2 scored Wolbachia per cell robust z, rep 1 = -0.997; Wolbachia per cell robust z, rep 2 = 0.319; Wolbachia per cell robust z, rep 3 = -0.114.
Against Eaf (GeneID 35660) #1, the entry reads Wolbachia per cell robust z, rep 1 = 1.82; Wolbachia per cell robust z, rep 2 = 0.462; Wolbachia per cell robust z, rep 3 = -0.358.
Eaf (GeneID 35660) #2 gave Wolbachia per cell robust z, rep 1 = 0.761; Wolbachia per cell robust z, rep 2 = -2.24; Wolbachia per cell robust z, rep 3 = 0.675.
With knock-down of Eaf (GeneID 35660) #3, the screen gave Wolbachia per cell robust z, rep 1 = -0.414; Wolbachia per cell robust z, rep 2 = -0.803; Wolbachia per cell robust z, rep 3 = -0.502.
With knock-down of Eaf (GeneID 35660) #4 the results were Wolbachia per cell robust z, rep 1 = -0.68; Wolbachia per cell robust z, rep 2 = 1.92; Wolbachia per cell robust z, rep 3 = -0.914.
VepD (GeneID 117331) #1 gave Wolbachia per cell robust z, rep 1 = 0.456; Wolbachia per cell robust z, rep 2 = -1.05; Wolbachia per cell robust z, rep 3 = -0.921.
For VepD (GeneID 117331) #2, the values are Wolbachia per cell robust z, rep 1 = -1.19; Wolbachia per cell robust z, rep 2 = -1.27; Wolbachia per cell robust z, rep 3 = -1.04.
With knock-down of JhI-26 (GeneID 36819) #1, the record shows Wolbachia per cell robust z, rep 1 = -1.45; Wolbachia per cell robust z, rep 2 = 0.11; Wolbachia per cell robust z, rep 3 = -1.46.
Depletion of JhI-26 (GeneID 36819) #2 came out at: Wolbachia per cell robust z, rep 1 = 0.0857; Wolbachia per cell robust z, rep 2 = 0.458; Wolbachia per cell robust z, rep 3 = 0.234.
Silencing of Ent2 (GeneID 33921) #1 came out at: Wolbachia per cell robust z, rep 1 = -0.128; Wolbachia per cell robust z, rep 2 = -1.19; Wolbachia per cell robust z, rep 3 = 0.73.
Ent2 (GeneID 33921) #2 scored Wolbachia per cell robust z, rep 1 = -1.5; Wolbachia per cell robust z, rep 2 = 0.5; Wolbachia per cell robust z, rep 3 = 0.955.
Knock-down of CG13159 (GeneID 36344) #1 resulted in: Wolbachia per cell robust z, rep 1 = 0.636; Wolbachia per cell robust z, rep 2 = 1.21; Wolbachia per cell robust z, rep 3 = -0.672.
After knock-down of CG13159 (GeneID 36344) #2 the results were Wolbachia per cell robust z, rep 1 = -0.749; Wolbachia per cell robust z, rep 2 = -0.681; Wolbachia per cell robust z, rep 3 = 0.603.

Active calls, among the entries above:
CG2790 (GeneID 37992) #1 → Wolbachia per cell robust z, rep 1 = 0.224 (active); Wolbachia per cell robust z, rep 2 = -4; Wolbachia per cell robust z, rep 3 = -5.51
